Key:
Format in all cases: cell-based
HIV-1Ba-L [1] = assay: Anti-HIV efficacy in human monocyte/macrophages (p24 ELISA); settings: TC50/IC50, HIV-1Ba-L
Procedure: SA-101A and SA-101B were tested for antiviral activity against HIV-1 virus in peripheral blood monocytes/macrophages. Monocytes/macrophages were derived from normal HIV-1 negative donors, and cultured under conditions which promote cell survival and HIV replication. Fresh human blood was obtained commercially from Biological Specialty Corporation (Colmar, Pa.). The low passage, monocytropic, clinical isolate HIV-1Ba-L (Subtype B, R5) was obtained from the NIAID AIDS Research and Reference Reagent Program. A pre-titered aliquot of HIV 1Ba-L was removed from the freezer (−80° C.) and thawed rapidly to room temperature in a biological safety cabinet immediately before use. Phytohemagglutinin (PHA-P) was obtained from Sigma (St. Louis, Mo.) and recombinant IL-2 was obtained from R&D Systems Inc. (Minneapolis, Minn.).
Compound preparation: Compounds SA-101A and SA-101B were in powder form and solubilized in DMSO prior to use. AZT (Sigma), solubilized in sterile dH2O, was used as the positive antiviral control. The compounds were tested at a 100 μg/mL high-test concentration; AZT was tested at a 1,000 ηM high-test concentration. […]
Anti-HIV efficacy evaluation in human monocyte/macrophages. […] At assay termination, virus replication was measured by collecting cell-free supernatant samples, which were analyzed for HIV p24 antigen content using a commercially available p24 ELISA assay (Coulter). […]

HIV-1Ba-L [2] = assay: PBMC antiviral assay, HIV-1Ba-L; settings: TC50/IC50, HIV-1Ba-L, human PBMCs
Procedure: Compounds SA-101A and SA-101B were tested for antiviral activity against HIV-1 in peripheral blood mononuclear cells (PBMC) acutely infected with the HIV-1 isolates. PBMCs were derived from normal HIV-1 negative donors, and cultured under conditions which promote cell survival and HIV replication. Fresh human blood was obtained commercially from Biological Specialty Corporation (Colmar, Pa.). The low passage clinical isolates HIV-1Ba-L, HIVIIIB, and SIVmac251 were from the NIAID AIDS Research and Reference Reagent Program. Immediately before use, pre-titered aliquot of the viruses were removed from storage in a freezer (−80° C.) and thawed rapidly to room temperature in a biological safety cabinet. Phytohemagglutinin (PHA-P) was obtained from Sigma (St. Louis, Mo.) and recombinant IL-2 was obtained from R&D Systems Inc. (Minneapolis, Minn.). […]
PMBC assay. […] Pooling (mixing) of mononuclear cells from more than one donor is used to minimize the variability observed between individual donors, which results from quantitative and qualitative differences in HIV infection and overall response to the PHA and IL-2 of primary lymphocyte populations. […]

HIV-1IIIB = assay: HIV-1 antiviral cytoprotection assay in CEM-SS cells; settings: TC50/IC50, HIV-1IIIB
Procedure: Antiviral efficacy of SA-101A and SA-101B compounds were evaluated in an HIV 1 antiviral cytoprotection assay using CEM-SS cells and the laboratory adapted HIV 1IIIB virus strain.
Compound preparation. Compounds SA-101A and SA-101B were prepared in powder form and solubilized in DMSO and stored at −20° C. AZT (Sigma), solubilized in sterile H2O, was used as a positive antiviral control and was stored at 4° C. The compounds were evaluated at a high test concentration of 500 μg/mL. AZT was run in parallel at a concentration of 500 nM.
Cell Preparation. CEM-SS cells were passaged in T-75 flasks prior to use in the antiviral assay. On the day preceding the assay, the cells were split 1:2 to assure they were in an exponential growth phase at the time of infection. Total cell and viability quantification was performed using a hemacytometer and trypan blue exclusion. Cell viability was greater than 95% for the cells to be utilized in the assay. […]
Virus Preparation. […] The virus was resuspended and diluted into tissue culture medium such that the amount of virus added to each well in a volume of 50 μl was the amount determined to give approximately 90% cell killing at 6 days post-infection.
MTS Staining for Cell Viability. At assay termination, the assay plates were stained with the soluble tetrazolium-based dye MTS (Cell Titer Reagent Promega) to determine cell viability and quantify compound toxicity. […]

Structure (SMILES): CC(=O)O[C@@]12C[C@@H](C)[C@@]3(O)[C@@H](C=C(CO)C[C@]4(O)C(=O)C(C)=C[C@@H]34)[C@@H]1C2(C)C [SA-101A, 12-deoxyphorbol 13-acetate]
- Therapeutic Index (HIV-1Ba-L [1]): 156
- Therapeutic Index (HIV-1Ba-L [2]): >20.1
- Therapeutic Index (HIV-1IIIB): > 5.83

Structure (SMILES): CC(=O)OC12CC(C)C3(O)C(C=C(COC(=O)CCC(=O)O)CC4(O)C(=O)C(C)=CC43)C1C2(C)C (centres unmarked) [SA-101B, Prostratin Succinate]
- Therapeutic Index (HIV-1Ba-L [1]; 40% Human AB serum): 74.8
- Therapeutic Index (HIV-1Ba-L [2]; 40% Human AB serum): >1,361
